Results taken from publication PMC3767830.

Tested on: O=C(O)[C@@H]1CCCN1
Assay: purified protein
Conditions: 0-500 mM proline, 5 mM Tris-HCl pH 8.0, 8 mM MgCl2, 2 mM DTT, 20 μM FAD, 4 mM 2-AB, 30°C

GST-ProdhΔ21 (Cryphonectria parasitica EP155)
Km: 38.15 ± 3.523 mM
kcat: 0.022 ± 0.005 s⁻¹
